From ChEMBL document CHEMBL3988442, “University of Dundee, Small-Polar-MMV Screening Library” (2021).

A: 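Growth of Mycobacterium tuberculosis over 3 days (7H9 medium with glucose and tyloxapol); the read-out is not stated. Concentration: 50 µM. Higher reads as more growth inhibition (inferred: compounds with an IC50 in retests scored well above the rest). Size under these conditions: about 69,000 compounds, about 760 of them at 50% or above in at least one test.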
B: 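Phenotypic screen: M. tuberculosis growth, cholesterol and DPPC medium, 4 days; the read-out is not stated. Compounds at 50 µM. Direction is inferred from retests: higher values go with more growth inhibition. Size under these conditions: about 69,000 compounds, about 370 of them at 50% or above in at least one test.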

Values are the deposited “Percent Effect”, in %.
The controls that fix the scale are not given in the record; negative values are as filed.
Many other results are left out here, so strong results are more common than in the screen.
Two or more numbers in one place are separate tests of the same structure; such repeats can differ widely.
A dash means the value is not listed here; it may have been measured.

SMILES	A	B
CCCc1cc(C(=O)NCCN2C(=O)c3ccccc3C2=O)[nH]n1	34.42	-
CSC1(CNC(=O)N(C)Cc2ccc(Cl)s2)CCOCC1	-57.39	-
COc1ccc(OC)c(NC(=O)c2nc3ccccc3n(C)c2=O)c1	25.27	-4.305
CC(=O)NCc1noc2c1CN(Cc1ccsc1)CC2	94.94 and 8.659	-
CCS(=O)(=O)CCNC1CCN(c2nc3ccc(Cl)cc3s2)CC1	41.84	8.415
CN1CCC(N(C)CCC(=O)N2CCC(Oc3ccc(Cl)cc3)CC2)C1 (stereo unspecified)	43.27	-
CCc1cnc(N2CCN(Cc3ccon3)CC2)s1	53.93	-
O=C(c1cnc(O)cc1O)N1CCCC(CCc2ccccc2F)C1 (stereo unspecified)	-29.26 and -3.562	-
Cc1cc(C(=O)N2CCN(Cc3ccsc3)CC2)n(C)n1	-4.058	-1.382
CN(C)S(=O)(=O)c1ccc(CNC(=O)C2CC2)cc1	-	-2.929
Br.COc1ccc(C(=O)CN(C2=NCCCCC2)c2ccccc2)cc1	35.55	10.32
Cc1ccsc1-c1cc(C(=O)O)cc(S(=O)(=O)NCc2ccccn2)c1	-15.05	-
CC(C)(O)CNc1ccc(C#N)c(C(F)(F)F)c1	0.5897	-
Cc1cccc(OCCN2CCC(c3ccnn3CCO)CC2)c1	52.72	-
O=C(CCc1ccco1)Nc1ccc(Br)cn1	27.81	-
CN(Cc1ccc(F)cc1)S(=O)(=O)N1CCOCC1	-31.47	-2.496
CCOc1cccc(C(=O)NCCC(=O)Nc2ccncc2)c1	-5.317 and -2.146	-
CCC(C)S(=O)(=O)N1CCc2nc(C3CCNCC3)ncc2C1.Cl (stereo unspecified)	40.57	-
Cc1cc(N(C)Cc2noc(C)n2)n2nc(C)c(C)c2n1	6.224 and -5.966	-13.54
CCSc1ncc(CN2CCN(c3ncc(C)c(N)n3)CC2)cn1	51.02	56.12
O=C(O)C(F)(F)F.[H][C@]12CN(c3ccccc3)C(=O)[C@@]1([H])CN(C1CCOC1)C2 (stereo partly specified)	11.93 and 50.58	-
CN(CC1COc2ccccc2O1)C(=O)C1=NN(C)C(=O)CC1 (stereo unspecified)	-5.883 and 18.84	15.44
Cc1cnn(CCC(=O)N2CCCN(c3nc(C)cs3)CC2)c1	-16.66	-
COCc1nn(Cc2ccc(Cl)s2)c(=O)o1	37.31	37.94
Cc1nc(CN(C)C2CCCN(c3cccnn3)C2)oc1C (stereo unspecified)	14.73	-
NC(=O)CN(Cc1ccc(Br)cc1)C(=O)c1ccccn1	12.57	-
CCOc1ccc(Cl)cc1C1CCCN1.Cl (stereo unspecified)	27.41 and 31.44	18.49
Cc1cc(C2CCCN(C(=O)c3c(C)noc3C)C2)n[nH]1 (stereo unspecified)	-3.421 and 53.88	-
Cc1nnc(CN(Cc2ccccc2Cl)C2CCCC2)o1	6.398 and -1.246	-
COc1ccc(-c2nc(CN3CC(n4cc(C)cn4)C3)no2)cc1	-	51.03
CCN(C(=O)CN1CCCC1Cc1ccccc1)c1ccccc1 (stereo unspecified)	38.73 and 35.51	-
CC(C)c1ccc(CN2CCN(C(=O)c3cc(C4CC4)[nH]n3)CC2)cc1	-4.413 and -31.98	-29.84
COCc1ccc(C(=O)NCCCNc2ccc(C(F)(F)F)cn2)cc1	-7.192	-
COc1ccc(C2CCCN2c2cnccn2)c(OC)c1 (stereo unspecified)	-28.54	-
CN1CCCN(C(=O)c2cc3c(s2)CCN3C(=O)c2ccccc2)CC1	16.59	-
NCCn1nc(C2CCN(C(=O)CC3CCCCC3)C2)c2nccnc21 (stereo unspecified)	-	3.245
COc1ccc(CN(Cc2ccccn2)Cc2cncn2C)cc1.O=C(O)CC(O)(CC(=O)O)C(=O)O	22.24	-
Cc1nc(COCc2cnc3n2CCN(CC2CCC2)C3C)cs1.O=C(O)C(F)(F)F (stereo unspecified)	51.54	-
CCCn1nnnc1CN(C)C(C)c1ccc(C)cc1 (stereo unspecified)	10.97	-
O=C(NCCCN1CCOCC1)c1ccc(-c2ccccc2)[nH]c1=O	-	-23.28
CCCC(=O)Nc1ccc(CC(=O)N(CC)CC2CCCCO2)cc1 (stereo unspecified)	-18.67	-31.73
CC(C)Nc1ncccc1C(=O)NCc1ncc[nH]1	-	-1.253
Cc1ncnc2c1CCN(C(=O)c1ccsc1)CC2	-	-13.28
N#CC1(NC(=O)COc2cc(Cl)cc(Cl)c2)CCOCC1	-0.4305 and 22.21	-
CN(Cc1cccc(C(F)(F)F)c1)Cc1nc(-c2cnccn2)no1	11.52	-
COc1cccc(NC(=O)Cn2c(=O)nc(N)c3cc(C)sc32)c1	3.761	-
O=C(NCCc1cccc(Cl)c1)C1CCOCC1	2.885 and -11.89	4.114
O=C(O)C(F)(F)F.[H][C@@]12CN(Cc3ccc(F)cc3)C[C@]1([H])C(=O)N(c1ccsc1)C2	46.71	-
[H][C@@]12CCCN1CCCN(c1nc(C(C)(C)C)nc3c1cnn3C)C2	56.93	-
Cc1ccc(CN(CCCN(C)C)Cc2cnc(N(C)C)nc2)o1.O=C(O)CC(O)(CC(=O)O)C(=O)O	-29.93	-10.87 and -15.12
CN(CCO)Cc1cc(Cl)ccc1OCC(O)CN1CCCCCC1 (stereo unspecified)	42.42	4.468
CCS(=O)(=O)N1CCC(c2nnc(CN3CCCCC3)n2C)CC1	-	-8.767
CC(=O)N1CCCC2(C1)CN(C(=O)c1ccncc1)CCO2 (stereo unspecified)	-	-7.472 and 7.465
CC(C)C(C(=O)N1CCC(Nc2cccnn2)CC1)n1cncn1 (stereo unspecified)	15.72	-
Cc1nc(COc2cccc(C#N)c2)no1	15.41	11.08
COC(=O)C1CCN(C(=O)c2nnc3ccc(C)cc3n2)CC1	5.466	-
CNC(=O)c1[nH]nc2ccc(I)cc12	-	8.702
CC(CCc1ccc(O)cc1)NC1CCN(C(=O)C(C)C)CC1 (stereo unspecified)	11.11	-
O=C(c1cc(C2CC2)on1)N1CCC(Oc2ncccc2Cl)CC1	42.19 and 41.79	-

Repeated from the top, 7 entries:

SMILES,A,B
CCCc1cc(C(=O)NCCN2C(=O)c3ccccc3C2=O)[nH]n1,34.42,-
CSC1(CNC(=O)N(C)Cc2ccc(Cl)s2)CCOCC1,-57.39,-
COc1ccc(OC)c(NC(=O)c2nc3ccccc3n(C)c2=O)c1,25.27,-4.305
CC(=O)NCc1noc2c1CN(Cc1ccsc1)CC2,94.94 and 8.659,-
CCS(=O)(=O)CCNC1CCN(c2nc3ccc(Cl)cc3s2)CC1,41.84,8.415
CN1CCC(N(C)CCC(=O)N2CCC(Oc3ccc(Cl)cc3)CC2)C1 (stereo unspecified),43.27,-
CCc1cnc(N2CCN(Cc3ccon3)CC2)s1,53.93,-